Results of unrelated studies side by side (data: NIAID ChemDB).

All rows: whole-cell or culture tests; species: Rhinovirus; read by: cytopathic effect; read-out: EC50

Neighbouring rows are from separate reports. ECn is the concentration giving n% inhibition of infection, replication or growth.

smiles | cell line | strain or isolate | value
CCCn1oc2cc(OCCC3CCN(c4ccc(C)nn4)CC3)ccc2c1=O | MRC-5 | Serotype 2 | 0.133 µg/mL
N=C(N)c1ccc(C2CCc3cc(C(=N)N)ccc3O2)cc1 | HeLa | Serotype 1B | >40 µM
CNC(=O)/C=C(\c1ccccc1)c1ccc2nc(N)c(-c3ccc(F)c(F)c3F)n2c1 | H-HELA | TYPE 14 | 0.21 µg/mL
CSc1nsc(-c2ccc(OCc3ccccc3)cc2)c1C#N | HELA-OHIO | Serotype 89 (group B) | 2 µM
CNC(=O)/C=C(\c1ccccc1)c1ccc2nc(N)c(SC(C)C)n2c1 | H-HELA | TYPE 14 | 0.21 µg/mL
Clc1ccc(C2CCc3cc(Cl)cnc3O2)cc1 | HeLa | TYPE 1A | 0.07 µM
CCOC(=O)c1ccc(OCCCOc2ccc(-c3snc(SC)c3C#N)cc2)cc1 | HELA-OHIO | Serotype 72 (group A) | >2 µM
CS(=O)(=O)c1cnc2c(c1)CCC(c1ccc(Cl)c(Cl)c1)O2 | HeLa | Serotype 2 | 0.002 µg/mL
CN(C)c1ccc(Cc2ccc(S(C)(=O)=O)cn2)cc1 | HeLa | TYPE 1A | >10 µg/mL
N#Cc1ccc(C2=Cc3cc(C#N)ccc3OC2)cc1 | HeLa | Serotype 1B | >8 µM
N=c1c2ncn([C@@H]3O[C@H](CO)[C@@H](O)[C@H]3O)c2ncn1O | KB | Type 1A/strain 2060 | 3.2 µg/mL
N=C(N)c1ccc2c(c1)C=C(c1ccccc1)CO2 | HeLa | Serotype 1B | >40 µM
CCOC(=O)c1ccc(OCCC2CCN(c3ccc(C)nn3)CC2)cc1 | HELA-OHIO | Serotype 59 (group B) | 0.03 µM
COc1ccc2nc([C@@H](O)[C@H](O)c3nc4ccc(OC)cc4[nH]3)[nH]c2c1 | WI-38 | Serotype 1A | 10 µg/mL
CS(=O)(=O)c1ccc(Cc2ccc(N)cc2)nc1 | HeLa | TYPE 64 | >10 µg/mL
CCCNc1nc2ccc(OCCC3CCN(c4ccc(C)nn4)CC3)cc2s1 | MRC-5 | Serotype 14 | >0.25 µg/mL
Cn1cnc2c(ncn2[C@@H]2O[C@H](CO)[C@@H](O)[C@H]2O)c1=N | KB | Type 1A/strain 2060 | 100 µg/mL
CS(=O)(=O)c1ccc(NCc2ccc(C(F)(F)F)cc2)nc1 | HeLa | TYPE 1A | >10 µg/mL
CCSc1nc2cc(OCCC3CCN(c4ccc(C)nn4)CC3)ccc2o1 | MRC-5 | Serotype 14 | 0.05 µg/mL
CNC(=O)/C=C(\c1ccccc1)c1ccc2nc(N)c(-c3cc(F)ccc3F)n2c1 | H-HELA | TYPE 14 | 0.16 µg/mL
CC(=O)c1coc(CCCOc2c(C)cc(-c3noc(C)n3)cc2C)c1 | HeLa | 15 serotype mixtures | <0.4 µM
CSc1nc2ccc(OCCC3CCN(c4ccc(Cl)nn4)CC3)cc2o1 | MRC-5 | Serotype 14 | 0.146 µg/mL
COc1ccc2nc(C[C@@H](O)c3nc4ccc(OC)cc4[nH]3)[nH]c2c1 | WI-38 | Serotype 42 | 10 µg/mL
CCOc1nc2ccc(OCCC3CCN(c4nnc(C)s4)CC3)cc2o1 | MRC-5 | Serotype 14 | 0.056 µg/mL
CCOC(=O)c1ccc(OCCCCOc2ccc(-c3snc(SC)c3C#N)cc2)cc1 | HELA-OHIO | Serotype 85 (group B) | >2 µM
N=C1c2ncn([C@@H]3O[C@H](CO)[C@@H](O)[C@H]3O)c2NCN1OCc1ccccc1 | KB | Type 1A/strain 2060 | 320 µg/mL
COc1ccc(OC)c2[nH]c([C@H](O)[C@@H](O)c3nc4c(OC)ccc(OC)c4[nH]3)nc12 | WI-38 | Serotype 42 | 320 µg/mL
N#Cc1ccc(C2=Cc3ccccc3OC2)cc1 | HeLa | Serotype 1B | >40 µM
N=C1c2ncn([C@@H]3O[C@H](CO)[C@@H](O)[C@H]3O)c2NCN1OCc1ccc(F)cc1 | KB | Type 1A/strain 2060 | 100 µg/mL
CS(=O)(=O)c1ccc(NCc2ccc(Cl)c(Cl)c2)nc1 | HeLa | TYPE 5 | >10 µg/mL
CSc1nsc(-c2ccc(OCCCCOc3ccc([N+](=O)[O-])cc3)cc2)c1C#N | HELA-OHIO | Serotype 41 (group B) | >0.5 µM
CS(=O)(=O)c1ccc(Cc2ccc(Cl)c(Cl)c2)nc1 | HeLa | TYPE 64 | <0.3 µg/mL
Brc1cnc2c(c1)C=CC(c1ccccc1)O2 | HeLa | TYPE 9 | >3.47 µM
CC(=O)c1ccoc1CCCOc1c(C)cc(-c2noc(C)n2)cc1C | HeLa | Serotype 14 | 1.9 µM
N#Cc1ccc2c(c1)CCC(c1ccccc1)O2 | HeLa | Serotype 1B | 8 µM
CCOc1nc2cc(OCCC3CCN(c4ccc(C)nn4)CC3)ccc2s1 | MRC-5 | Serotype 2 | 0.104 µg/mL
CSc1nsc(-c2ccc(OCCCc3ccccc3)cc2)c1C#N | HELA-OHIO | Serotype 51 (group B) | >20 µM
N=C1c2ncn([C@H]3C[C@H](O)[C@@H](CO)O3)c2NCN1OCc1cccc(F)c1 | KB | Type 1A/strain 2060 | 320 µg/mL
CCOc1ccc2nc([C@H](O)[C@@H](O)c3nc4ccc(OCC)cc4[nH]3)[nH]c2c1 | WI-38 | Serotype 1A | 1 µg/mL

3 of the rows above, restated:

{"smiles": "CC(=O)c1ccoc1CCCOc1c(C)cc(-c2noc(C)n2)cc1C", "cell line": "HeLa", "strain or isolate": "Serotype 14", "value": "1.9 µM"}
{"smiles": "CS(=O)(=O)c1cnc2c(c1)CCC(c1ccc(Cl)c(Cl)c1)O2", "cell line": "HeLa", "strain or isolate": "Serotype 2", "value": "0.002 µg/mL"}
{"smiles": "CCSc1nc2cc(OCCC3CCN(c4ccc(C)nn4)CC3)ccc2o1", "cell line": "MRC-5", "strain or isolate": "Serotype 14", "value": "0.05 µg/mL"}